Experimental data: publication PMC7462287, “Cryo-EM structure of the fully-loaded asymmetric anthrax lethal toxin in its heptameric pre-pore state” (2020)

Biological target: Protective antigen heptameric pre-pore (PA7) (Bacillus anthracis) (UniProt P13423)

Lethal factor (LF) (from UniProt P15917 34-809)
stoichiometry N: 3
